As a reminder, the inhibition is the drop in the measured response relative to a control, in per cent.

Molecules are shown by their SMILES. “And” between values parts separate entries of the source, which are not always exact repeats. Equal entries are not always repeated. The entries are a selection whose mix differs from that of the whole data set. The source made the active and inactive calls. Rule as the data show it: active = inhibition above about 12%; inactive = the rest.

For the experiment, the target named is Replicase polyprotein 1ab (Severe acute respiratory syndrome coronavirus) (UniProt P0C6X7). Nature of the experiment: SARS-CoV 3CLpro protease inhibitors, primary screen, biochemical, quenched FRET (AID 1706). As to conditions: recombinant SARS-CoV 3CLpro, quenched FRET peptide cleavage; at 6 µM; hits give high values.
For `CC(C)CC(=O)NC(Sc1ccc(Cl)cc1)C(Cl)(Cl)Cl` (centres undefined), the inhibition was inactive: 3.86%. In the case of `Nc1cc(N)c2nonc2c1[N+](=O)[O-]` it was inactive: 1.47%; in that of `Cc1c2non([O-])c-2c(C)[n+](=O)[n+]1[O-]`, inactive: -3.21%; in that of `O=C(NC(Sc1ccncn1)C(Cl)(Cl)Cl)c1ccccc1` (centres undefined), inactive: -3.29%. Turning to `Oc1ccccc1CNc1ccccn1`, the inhibition was inactive: -3.35%. Consider `Cc1ccc(OP(=O)(Nc2nccs2)Oc2ccc(C)cc2)cc1`, for which the inhibition is inactive: -0.91%.

Take `COc1ccccc1OP(=O)(Nc1ccc(C)cn1)Oc1ccccc1OC`: the inhibition was inactive: 4.22%. The result for `Clc1ccc(Cl)c(NC2=NCC(CBr)S2)c1` (centres undefined) reads inactive: 0.08%; that for `CN1CCCC(OC(=O)C(c2ccccc2)c2ccccc2)C1` (centres undefined), inactive: 1.93%; that for `NC(=O)c1cc([N+](=O)[O-])cc([N+](=O)[O-])c1N`, inactive: 2.95%. In the case of `Cc1ccc(N/C(=N/P(=O)(N2CCOCC2)N2CCOCC2)N2CCOCC2)cc1` it was inactive: -2.26%; in that of `CCN(N=Nc1nonc1N)c1nonc1N`, inactive: 4.82%; in that of `Nc1cccc2ccc([As](=O)(O)O)cc12`, inactive: 3.07%. Turning to `O=[N+]([O-])c1cc([N+](=O)[O-])c(CCN2CCOCC2)c([N+](=O)[O-])c1`, the inhibition is inactive: -2.46%.

With `Cc1ccc(NP(=O)(Oc2ccccc2F)Oc2ccccc2F)nc1`, the inhibition is inactive: 0.99%. In the case of `CCOP(=O)(Nc1ccccc1)OCC`, the inhibition is inactive: 2.22% and inactive: 0.39%. Consider `Cc1cc(SC(NC(=O)c2ccc(F)cc2)C(Cl)(Cl)Cl)ncn1` (centres undefined), for which the inhibition was inactive: 0.7%. The result for `O=C(O)c1ccccc1[As](=O)(O)O` reads inactive: 0.67%; that for `CC(=O)Nc1ccc([As](=O)(O)O)cc1`, inactive: -1.23%.

Consider `O=P(Nc1nc2ccc(Cl)cc2s1)(c1ccccc1)c1ccccc1`, for which the inhibition is inactive: -0.74%. Take `O=[N+]([O-])c1cccc(NC2=NCC(CBr)S2)c1` (centres undefined): the inhibition was inactive: 0.36%. In the case of `O=C(O)CNc1ccc([As](=O)(O)O)cc1` it was inactive: 5.21%. The result for `CC(C)(C)C(=O)NC(Sc1ccncn1)C(Cl)(Cl)Cl` (centres undefined) reads inactive: 5.28%. In the case of `O=[N+]([O-])c1ncn(CCn2ncnc2[N+](=O)[O-])n1` it was inactive: 0.34%; in that of `O=C(Nc1cc([As](=O)(O)O)ccc1O)c1ccccc1`, inactive: -1.26%.

`CN(C)C(=O)OCCc1n(C)cc[n+]1C`: the inhibition is inactive: -2.74%.

For `CC(C)=N/N=C(\N)N[N+](=O)[O-]`, the inhibition is inactive: -2.44%.

Regarding `CC1CCN(C(=O)Oc2c(Cl)cc(Cl)c3cccnc23)CC1`, the inhibition was inactive: -0.16%.

Take `C[N+]1=C2C=CC=CC=C2SC12C([N+](=O)[O-])=CC([N+](=O)[O-])=C[C-]2[N+](=O)[O-]` (centres undefined): the inhibition was inactive: 6.53%.

With `Nc1ccc([As](=O)(O)c2ccc(N)cc2)cc1`, the inhibition is inactive: 1.31%. Consider `CCN(/C(=N/P(=O)(N1CCOCC1)N1CCOCC1)N1CCOCC1)c1ccc(OC)cc1`, for which the inhibition is inactive: 2.99%. Take `O=[N+]([O-])c1cccc2n[nH]nc12`: the inhibition is inactive: -0.91%. As to `CC(=O)N1C2C3N(C(C)=O)C1C1N(C(C)=O)C(C(N1C(C)=O)N3C(C)=O)N2C(C)=O`, the inhibition is inactive: -6.24%. In the case of `CCc1nc2c(n1)c1c(non1O)c1c2no[n+]1[O-]` it was inactive: -4.49%.

Regarding `O=[N+]([O-])c1cc([N+](=O)[O-])c(CCNc2ccccc2)c([N+](=O)[O-])c1`, the inhibition is inactive: -1.56%. The result for `Cc1ccc(NP(=O)(Oc2ccccc2)Oc2ccccc2)nc1` reads inactive: 4.61%; that for `COc1ccc(C2=NCC(CBr)S2)cc1` (centres undefined), inactive: 5.27%. The result for `c1nnnn1CCn1cnnn1` reads inactive: 0.79%; that for `CC(C)C(=O)NC(Sc1ccccc1)C(Cl)(Cl)Cl` (centres undefined), inactive: 7.38%. In the case of `O=P(Nc1nccs1)(c1ccccc1)c1ccccc1` it was inactive: 0.44%; in that of `Nc1ccc([As](=O)(O)c2ccc([N+](=O)[O-])cc2)cc1`, inactive: 6.26%. In the case of `C(Cc1nn[nH]n1)Cc1nn[nH]n1`, the inhibition is inactive: -3.58%. On to `O=C(OC1CN2CCC1CC2)c1cccc(Cl)c1` (centres undefined), for which the inhibition was inactive: 2.04%. For the molecule `O=[N+]([O-])c1ccc(O)c(/C=N/Nc2ccc([N+](=O)[O-])cc2[N+](=O)[O-])c1`, the inhibition was inactive: 7.75%. In the case of `O=[N+]([O-])c1ncn(CCn2cnc([N+](=O)[O-])n2)n1` it was inactive: 1.28%.

In the case of `CC(=O)NC(SC(=S)N(C)C)C(Cl)(Cl)Cl` (centres undefined), the inhibition was inactive: 1.35%. With `O=[As](O)(c1ccccc1)c1ccc(O)cc1`, the inhibition was inactive: -3.44%. On to `O=P(Nc1nc2ccccc2s1)(c1ccccc1)c1ccccc1`, for which the inhibition was inactive: 2.91%. Turning to `O=P(Nc1ccccn1)(c1ccc(Br)cc1)c1ccc(Br)cc1`, the inhibition is inactive: -0.17%.

For the molecule `CN(C)C1(CNC(=O)c2ccc(Cl)c(S(N)(=O)=O)c2)CCCCC1`, the inhibition is inactive: 2.57%. The result for `CN(C)C(=O)Oc1noc2ccccc12` reads inactive: 4.95%. The result for `O=c1c2cc([N+](=O)[O-])ccc2[nH]c2c([N+](=O)[O-])cc([N+](=O)[O-])cc12` reads inactive: 4.66%; that for `Cc1ccccc1OP(=O)(Nc1ccccn1)Oc1ccccc1C`, inactive: 1.23%; that for `Cc1ccc(OP(=O)(Nc2ccccn2)Oc2ccc(C)cc2)cc1`, inactive: 3.31%. In the case of `CC(=O)NC(SC(=S)N(CC(C)C)CC(C)C)C(Cl)(Cl)Cl` (centres undefined), the inhibition is inactive: -2.06%.

As for `COC(=O)c1cc2c(s1)N=C(c1ccccc1)N(C)P2(=O)N1CCOCC1` (centres undefined), the inhibition is inactive: 0.58%. In the case of `CCC(=O)N1C2C3N(C(=O)CC)C1C1N(C(=O)CC)C(C(N1C(=O)CC)N3C(=O)CC)N2C(=O)CC` it was inactive: 2.4%; in that of `O=C(OC1CN2CCC1CC2)c1ccccc1` (centres undefined), inactive: 0.26%.

Take `CCNC(=S)/N=C(\N)N[N+](=O)[O-]`: the inhibition was inactive: 0.98%. In the case of `O=C(NC1CCS(=O)(=O)C1)NP(=S)(Oc1ccccc1)Oc1ccccc1` (centres undefined) it was inactive: 5.21%; in that of `CCOC(=O)NC(Sc1ccccc1)C(Cl)(Cl)Cl` (centres undefined), inactive: 5.16%; in that of `Cc1ccc(NP(=O)(Oc2cccc(C)c2)Oc2cccc(C)c2)nc1`, inactive: -2.61%. The result for `c1ccc(-c2nn[nH]n2)c(-c2nn[nH]n2)c1` reads inactive: 4.34%; that for `CC(=O)Nc1ccc(Oc2c([N+](=O)[O-])cc([N+](=O)[O-])cc2[N+](=O)[O-])cc1`, inactive: 1.86%.

The values above are taken from PubChem BioAssay AID1706 (The Scripps Research Institute Molecular Screening Center, 2009).
